The text below walks through data of paper PMC9289529, “Varicella‐Zoster virus ORF9 is an antagonist of the DNA sensor cGAS”.

For some assays here: A weaker result is weaker than the reference pair of the same experiment. Tags and fusion partners may be left off the protein sequences shown. For some assays here: The exact form of at least one protein or probe is not confirmed. For some assays here: At least one result comes from cells or an extract, where the contact may be indirect.

Data set [1] deals with T1, ORF9-N (Varicella-zoster virus) (UniProt Q4JQW6).
T1 sequence (looked up): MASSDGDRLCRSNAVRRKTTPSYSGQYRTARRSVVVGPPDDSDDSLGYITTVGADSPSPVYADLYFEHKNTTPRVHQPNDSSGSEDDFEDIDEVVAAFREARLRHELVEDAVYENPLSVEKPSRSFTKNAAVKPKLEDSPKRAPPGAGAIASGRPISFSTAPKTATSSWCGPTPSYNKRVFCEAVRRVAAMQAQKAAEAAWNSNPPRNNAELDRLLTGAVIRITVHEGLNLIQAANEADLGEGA
The experiment in a line: phase separation microscopy. The following applies: no cGAS, much reduced droplets; recombinant protein; residues 1-244; protein details: 6xHis-SUMO removed by SENP2.

Data set [2] concerns the target T2, ORF9 (FLAG-ORF9), HEK293T (Varicella-zoster virus) (UniProt Q4JQW6).
T2 sequence (looked up): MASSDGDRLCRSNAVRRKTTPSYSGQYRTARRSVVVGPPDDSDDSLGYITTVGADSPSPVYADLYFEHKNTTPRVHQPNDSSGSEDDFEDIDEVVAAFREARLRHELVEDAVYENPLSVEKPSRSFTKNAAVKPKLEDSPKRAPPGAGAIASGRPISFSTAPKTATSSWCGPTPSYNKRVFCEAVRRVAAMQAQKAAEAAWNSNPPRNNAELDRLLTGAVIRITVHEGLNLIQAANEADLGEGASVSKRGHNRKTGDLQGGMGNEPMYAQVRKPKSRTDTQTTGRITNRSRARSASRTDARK
The experiment in a line: pull-down. To be noted: HEK293T lysate; 3' TEG-biotin on forward strand; Binding buffers for pull-down; phase separation tested at varied NaCl/KCl up to 300 mM or more; protein in a lysate after overexpression; residues 1-302; protein details: N-terminal FLAG; label: biotin.

Regarding “ACATCTAGTACATGTCTAGTCAGTATCTAGTGATTATCTAGACATACATCTAGTACATGTCTAGTCAGTATCTAGTGATTATCTAGACATGGACTCATCC (double strand) [100 bp ISD]”, the binding result in data set [1] was “binds more weakly”.

Turning to “CCATCAGAAAGAGGTTTAATATTTTTGTGAGACCATCGAAGAGAGAAAGAGATAAAACTTTTTTACGACT (double strand) [VACV-70mer-Biotin]”, the binding result in data set [2] is “binds”.
